Results of unrelated studies side by side (data: NIAID ChemDB).

Common to all: target-level tests

Two numbers with a dash give a range or band.

SMILES,endpoint,protein,dose,method,strain or isolate,agent,result
CNC(=O)c1c(-c2ccc(Br)c(F)c2)oc2ccc(OC(C)C)cc12,IC50,Nonstructural protein 5B,,,,Hepatitis C virus,≤0.5 µM
CC(C)[C@H](NC(=O)[C@@H](NC(=O)CCC(=O)O)C1CCCCC1)C(=O)N[C@@H](CCC(=O)O)C(=O)NC1(C(=O)O)CC1,IC50,Nonstructural protein 3 NTPase/helicase,,,,Hepatitis C virus,>83.5 µM
CCCC(NC(=O)[C@@H]1CCCN1C(=O)[C@@H](NC(=O)[C@@H](NC(=O)[C@@H](CCC(=O)O)NC(=O)[C@H](CC(=O)O)NC(C)=O)[C@@H](C)CC)C(C)C)C(=O)C(=O)NCc1ccccc1,IC50,NS3 protease/NS4A cofactor,,,,Hepatitis C virus,2 µM
O=C(O)c1nc(-c2ccccc2NS(=O)(=O)c2ccc(C(F)(F)F)cc2Cl)[nH]c(=O)c1O,IC50,HCV polymerase,,,,Hepatitis C virus,<100 µM
c1ccc(Oc2cccc(-c3c(-c4ccccc4)cnc4c(-c5nn[nH]n5)cnn34)c2)cc1,IC50,RNA-dependent RNA polymerase,,,,Hepatitis C virus,>10 µM
O=C(O)CCCC(=O)N[C@H](C(=O)N[C@@H](CCC(=O)O)C(=O)N[C@@H](Cc1ccc2ccccc2c1)C(=O)N[C@@H](CS)C(=O)O)C1CCCCC1,inhibition,Nonstructural protein 3 NTPase/helicase,1.67 µM,,,Hepatitis C virus,37%
CSc1ncc(C(=O)NCCCn2ccnc2)c(Nc2ccc3[nH]ncc3c2)n1,IC50,Reverse transcription,,,,Hepatitis B virus,<0.1 µg/mL
O=C(O)c1sc(-c2ccc([N+](=O)[O-])cc2)cc1NS(=O)(=O)c1ccccn1,IC50,NS3 ATPase,,,,Hepatitis C virus,5–20 µM
CCC(C)[C@H](NC(=O)[C@@H](NC(=O)CCC(=O)O)C1CCCCC1)C(=O)N[C@@H](CC1CCCCC1)C(=O)N[C@@H](CS)C(=O)O,inhibition,Nonstructural protein 3 NTPase/helicase,16.7 µM,,,Hepatitis C virus,82%
CC(NC(=O)c1ccc2c(c1)nc(-c1ccoc1)n2C1CCCCC1)C(=O)Nc1ccc(OCC(=O)O)cc1,IC50,NS5B polymerase,,,,Hepatitis C virus,0.5–5 µM
CSc1ncc(C(=O)NN2CCOCC2)c(Nc2ccc3[nH]ncc3c2)n1,IC50,Reverse transcription,,,,Hepatitis B virus,<0.1 µg/mL
O=C(Nc1cccc(-c2nc(C(=O)O)c(O)c(=O)[nH]2)c1)NC1CCc2ccccc21,IC50,HCV polymerase,,,,Hepatitis C virus,<100 µM
CC[C@H](C)[C@H](NC(=O)[C@H](CC(C)C)NC(=O)CCC(=O)O)C(=O)N[C@@H](CC1CCCCC1)C(=O)NC1(C(=O)O)CC1,inhibition,Nonstructural protein 3 NTPase/helicase,83.5 µM,,,Hepatitis C virus,7%
O=C(O)c1sc(-c2ccccc2)cc1N(Cc1ccccc1Cl)C(=O)C1CCCCC1,IC50,NS3 ATPase,,,,Hepatitis C virus,<5 µM
CCOC(=O)c1sc2ccc(NC(=O)C3(NC(=O)c4ccc5c(c4)nc(-c4ccoc4)n5C4CCCCC4)CCCC3)cc2c1C,IC50,NS5B polymerase,,,,Hepatitis C virus,0.5–5 µM
CSc1ncc(C(=O)NCCN(C)C)c(Nc2ccc3cn[nH]c3c2)n1,IC50,Reverse transcription,,,,Hepatitis B virus,<0.01 µg/mL
CCCOc1cc2c(C(=O)NC)c(-c3ccc(F)cc3)oc2cc1N(C)S(C)(=O)=O,IC50,Nonstructural protein 5B,,,,Hepatitis C virus,≤0.5 µM
CSc1ncc(C(=O)N(C)C)c(Nc2ccc3cn[nH]c3c2)n1,IC50,Reverse transcription,,,,Hepatitis B virus,<1 µg/mL
CC(C)C[C@H](NC(=O)[C@H](CCC(=O)O)NC(=O)[C@@H](NC(=O)CCC(=O)O)C1CCCCC1)C(=O)NC1(C(=O)O)CC1,IC50,Nonstructural protein 3 NTPase/helicase,,,,Hepatitis C virus,>167 µM
Cc1ccc(S(=O)(=O)Nc2cc(-c3ccc(C(=O)O)cc3)sc2C(=O)O)c(C)c1,IC50,NS3 ATPase,,,,Hepatitis C virus,<5 µM
CC[C@H](C)[C@]1(CC(=O)O)OCCc2c1[nH]c1c(C)c(OCCn3cccn3)cc(C#N)c21,IC50,HCV polymerase,,nucleotide incorporation,BB7,Hepatitis C virus,0.012 µM
O=C(O)CCC(=O)N[C@H](C(=O)N[C@@H](CCC(=O)O)C(=O)N[C@@H](CCC(=O)O)C(=O)NC1(C(=O)O)CC1)C(c1ccccc1)c1ccccc1,IC50,Nonstructural protein 3 NTPase/helicase,,,,Hepatitis C virus,>83.5 µM
CO[C@@H]1[C@H](O)[C@@H](COP(=O)(O)OP(=O)(O)OP(=O)(O)O)O[C@H]1n1ccc(N)nc1=O,IC50,Replicase complex,,,,Hepatitis C virus,4.8 µM
CC(=O)N[C@@H](CCC(=O)O)C(=O)N[C@@H](CCC(=O)O)C(=O)N[C@@H](CS)C(=O)O,inhibition,Nonstructural protein 3 NTPase/helicase,16.7 µM,,,Hepatitis C virus,15%
O=C(O)c1cc2nc(-c3ccc(F)cc3)cc(-c3ccc(Oc4ccccc4)cc3)n2n1,IC50,RNA-dependent RNA polymerase,,,,Hepatitis C virus,>10 µM
CC(=O)N[C@H](C(=O)N[C@H](C(=O)N1C[C@H](Oc2cccnc2-c2ccsc2)CC1C(=O)NC1(C(=O)O)CC1)C(C)C)C1CCCCC1,IC50,NS3 protease,,,,Hepatitis C virus,>200 µM
CNC(=O)c1c(-c2ccc(F)cc2)oc2cc(N3CCOCC3)c(OCCOC)cc12,IC50,Nonstructural protein 5B,,,,Hepatitis C virus,≤0.5 µM
CC(=O)N[C@H](C(=O)N[C@H](C(=O)N1C[C@H](Oc2ccc(Br)cc2)CC1C(=O)NC1(C(=O)O)CC1)C(C)C)C1CCCCC1,IC50,NS3 protease,,,,Hepatitis C virus,25 µM
O=C(Cc1c(-c2ccccc2)[nH]c2ccccc12)Nc1cscc1-c1nc(C(=O)O)c(O)c(=O)[nH]1,IC50,HCV polymerase,,,,Hepatitis C virus,<25 µM
COc1cccc(Oc2cccc(-c3cnc4c(-c5nn[nH]n5)cnn4c3C3CCCCC3)c2)c1,IC50,RNA-dependent RNA polymerase,,,,Hepatitis C virus,1–10 µM
O=C(NC1(C(=O)Nc2ccc3[nH]c(=S)sc3c2)CCCC1)c1ccc2c(c1)nc(-c1ccoc1)n2C1CCCCC1,IC50,NS5B polymerase,,,,Hepatitis C virus,0.5–5 µM
CSc1ncc(C(=O)N2CCN(C)CC2)c(Nc2ccc3cn[nH]c3c2)n1,IC50,Reverse transcription,,,,Hepatitis B virus,<1 µg/mL
CC(=O)N[C@H](C(=O)N[C@@H](CCC(=O)O)C(=O)N[C@@H](CCC(=O)O)C(=O)NC1(C(=O)O)CC1)C1CCCCC1,inhibition,Nonstructural protein 3 NTPase/helicase,167 µM,,,Hepatitis C virus,27%
C#Cc1cccc(-c2nc(C(=O)O)c(O)c(=O)[nH]2)c1,IC50,HCV polymerase,,,,Hepatitis C virus,<100 µM
CNC(=O)c1c(-c2ccc(F)cc2)oc2cc(S(=O)(=O)N(C)C)c(OC(C)C)cc12,IC50,Nonstructural protein 5B,,,,Hepatitis C virus,≤0.5 µM
COC(=O)c1cc2nc(-c3ccco3)c(C3CCCCC3)c(=O)n2[nH]1,IC50,RNA-dependent RNA polymerase,,,,Hepatitis C virus,1–10 µM
Cc1ccc(S(=O)(=O)N(C)c2cc(-c3ccccc3O)sc2C(=O)O)cc1,IC50,NS3 ATPase,,,,Hepatitis C virus,5–20 µM
CSc1ncc(C(=O)NCc2cccnc2)c(Nc2ccc3cn[nH]c3c2)n1,IC50,Reverse transcription,,,,Hepatitis B virus,<0.01 µg/mL
O=C(O)/C=C/c1ccc(NC(=O)C2(NC(=O)c3ccc4c(c3)nc(-c3ccccc3)n4C3CCC3)CCCC2)cc1,IC50,NS5B polymerase,,,,Hepatitis C virus,0.5–5 µM
COc1ccc(-c2cc(-c3ccccc3)nc3cc(C(=O)O)nn23)cc1,IC50,RNA-dependent RNA polymerase,,,,Hepatitis C virus,>10 µM
CCCC(NC(=O)[C@@H]1CCCN1C(=O)[C@@H](NC(=O)[C@@H](NC(=O)[C@@H](CCC(=O)O)NC(=O)[C@H](CC(=O)O)NC(C)=O)[C@@H](C)CC)C(C)C)C(=O)C(F)(F)F,IC50,NS3 protease/NS4A cofactor,,,,Hepatitis C virus,23.5 µM
CC(C)C[C@H](NC(=O)[C@H](CCC(N)=O)NC(=O)[C@@H](NC(=O)CCC(=O)O)C1CCCCC1)C(=O)N[C@@H](CS)C(=O)O,inhibition,Nonstructural protein 3 NTPase/helicase,1.67 µM,,,Hepatitis C virus,6%
Cc1ccc(-c2cc(NS(=O)(=O)c3ccc(F)cc3F)c(C(=O)O)s2)cc1,IC50,NS3 ATPase,,,,Hepatitis C virus,<5 µM
COc1cccc(-c2cnc3c(C(=O)O)cnn3c2C2CCCCC2)c1,IC50,RNA-dependent RNA polymerase,,,,Hepatitis C virus,1–10 µM
CC(=O)N[C@H](C(=O)N[C@H](C(=O)N1C[C@H](Oc2ccc(Cl)cc2)CC1C(=O)NC1(C(=O)O)CC1)C(C)C)C1CCCCC1,IC50,NS3 protease,,,,Hepatitis C virus,50 µM
C[C@@H](NC(=O)c1ccc2c(c1)nc(-c1ccoc1)n2C1CCCCC1)C(=O)Nc1ccc(SCC(=O)O)cc1,IC50,NS5B polymerase,,,,Hepatitis C virus,0.5–5 µM
O=C(O)c1nc(-c2cccc(CSc3ccncc3)c2)[nH]c(=O)c1O,IC50,HCV polymerase,,,,Hepatitis C virus,<100 µM
O=C(Nc1nn[nH]n1)c1cnn2c(C3CCCCC3)c(-c3ccc(F)cc3)cnc12,IC50,RNA-dependent RNA polymerase,,,,Hepatitis C virus,1–10 µM
O=C(O)c1nc(-c2sccc2NC(=O)C(NCc2ccc3ccccc3c2)c2ccccc2)[nH]c(=O)c1O,IC50,HCV polymerase,,,,Hepatitis C virus,<25 µM
CC(=O)N[C@H](C(=O)N[C@H](C(=O)N1C[C@H](Oc2cccc(N3CCOCC3)c2)CC1C(=O)NC1(C(=O)O)CC1)C(C)C)C1CCCCC1,IC50,NS3 protease,,,,Hepatitis C virus,32 µM
COCCNC(=O)c1cnc(SC)nc1Nc1ccc2[nH]ncc2c1,IC50,Reverse transcription,,,,Hepatitis B virus,<1 µg/mL
N#Cc1ccccc1S(=O)(=O)Nc1ccccc1-c1nc(C(=O)O)c(O)c(=O)[nH]1,IC50,HCV polymerase,,,,Hepatitis C virus,<100 µM

For reference, 4 entries again:

SMILES,endpoint,protein,dose,method,strain or isolate,agent,result
CC(=O)N[C@H](C(=O)N[C@H](C(=O)N1C[C@H](Oc2ccc(Cl)cc2)CC1C(=O)NC1(C(=O)O)CC1)C(C)C)C1CCCCC1,IC50,NS3 protease,,,,Hepatitis C virus,50 µM
CC(NC(=O)c1ccc2c(c1)nc(-c1ccoc1)n2C1CCCCC1)C(=O)Nc1ccc(OCC(=O)O)cc1,IC50,NS5B polymerase,,,,Hepatitis C virus,0.5–5 µM
CSc1ncc(C(=O)NCc2cccnc2)c(Nc2ccc3cn[nH]c3c2)n1,IC50,Reverse transcription,,,,Hepatitis B virus,<0.01 µg/mL
CSc1ncc(C(=O)NCCN(C)C)c(Nc2ccc3cn[nH]c3c2)n1,IC50,Reverse transcription,,,,Hepatitis B virus,<0.01 µg/mL

ICn: concentration for n% inhibition. Inhibition is in % at the dose shown (toxicity tests: loss of growth or viability). An empty or dashed field is not shown. Neighbouring rows are from separate reports.